Measured values from several laboratories, pooled; numbers as filed in NIAID ChemDB.

Shared fields: tests on isolated targets

Fold resistance: result on the changed form divided by that on wild type. a–b is a range or a potency band. ICn: concentration for n% inhibition. Rows are shuffled and stem from different studies. Inhibition is in % at the dose shown (toxicity tests: loss of growth or viability). Blank or dashed fields: not listed here.

SMILES	tested at	strain or isolate	protein	organism	endpoint	changes	method	result
Nc1ncnc2c1ncn2C[C@@H](CO)OCP(=O)(O)O		Kanno-Kohmura (TK-)	Thymidylate synthetase	Varicella zoster virus	IC50			>100 µM
NNC(=O)c1ccncc1		H37Rv	NADH oxidase	Mycobacterium tuberculosis	IC50			>1000 µM
CO[C@H]1/C=C/O[C@@]2(C)Oc3c(C)c(O)c4c(=O)c(c5oc6cc(N7CCN(CC(C)C)CC7)cc(=O)c6nc5c4c3=C2O)NC(=O)/C(C)=C\C=C\[C@H](C)[C@H](O)[C@@H](C)[C@@H](O)[C@@H](C)[C@H](OC(C)=O)[C@@H]1C		N-265	RNA polymerase	Mycobacterium avium	IC50			0.2 µg/mL
O=C(O)c1ccc(N2C(=O)C(=Cc3ccc(-c4ccccc4Cl)o3)SC2=S)cc1			NS5 polymerase	Bovine viral diarrhea virus	IC50			≤1 µM
CCCCCn1c(Sc2ccc(C#N)c([N+](=O)[O-])c2)nnc1-c1cccs1			Thioredoxin reductase	Plasmodium vivax	IC50			4.5 µM
CCOc1c(Cl)cc2nc(S(N)(=O)=O)sc2c1Cl			Geranylgeranyl-protein transferase I	Candida albicans	IC50			0.09 µM
OCc1ccc(-c2cncc(N3CCN(c4ccccc4)CC3)n2)cc1			UL97 kinase	Cytomegalovirus	IC50			<10 µM
Cc1ccc(Cl)c2nc(N3CCN(C(=O)c4ccc([N+](=O)[O-])o4)CC3)sc12			Thioredoxin reductase	Plasmodium falciparum	IC50			5.2 µM
Cc1cc2c([nH]c3ccccc32)c2c1OC(C)(C)C=C2			Early antigen (EA) induced	Epstein-Barr virus	IC50		antigen	6 µg/mL
N#Cc1cccc(-c2cncc(N3CCN(c4ccncc4)CC3)n2)c1			UL97 kinase	Cytomegalovirus	IC50			<10 µM
Nc1ccn([C@@H]2O[C@H](CO)[C@@H](O)[C@@H]2O)c(=O)n1		KANNO (TK+)	Thymidylate synthetase	Varicella zoster virus	IC50			52 µM
COc1ccc(Br)cc1-c1ccc(C=C2SC(=S)N(c3ccc(C(=O)O)cc3)C2=O)o1			NS5 polymerase	Bovine viral diarrhea virus	IC50			≤1 µM
O=C(Cc1ccc(Cl)cc1Cl)Nc1ccsc1-c1nc(C(=O)O)c(O)c(=O)[nH]1			HCV polymerase	Hepatitis C virus	IC50			<25 µM
Nc1nc2c(ncn2COCCOP(=O)(O)OP(=O)(O)OP(=O)(O)O)c(=O)[nH]1			DNA polymerase	Epstein-Barr virus	Ki			0.007 µM
CCOc1ccc(-c2cncc(N3CCN(c4ccc(F)cc4F)CC3)n2)cc1	10 µM		UL97 kinase	Cytomegalovirus	inhibition			>15%
O=c1[nH]c(=O)n([C@@H]2O[C@H](CO)[C@@H](O)[C@@H]2O)cc1/C=C/Br		KANNO (TK+)	Thymidylate synthetase	Varicella zoster virus	IC50			>100 µM
Cc1ccc(-c2cncc(N3CCN(c4ccc(F)cc4F)CC3)n2)cc1	10 µM		UL97 kinase	Cytomegalovirus	inhibition			>15%
O=C(O)c1cc2nc(-c3ccc(F)cc3)cc(-c3cccc(F)c3)n2n1			RNA-dependent RNA polymerase	Hepatitis C virus	IC50			>10 µM
CC(=O)Nc1ccc(C(=O)O)cc1	10 µM	RH	DHPS	Toxoplasma gondii	inhibition			22.7%
Cc1ccc(N2CCN(c3cncc(-c4cccc5ccccc45)n3)CC2)cc1	10 µM		UL97 kinase	Cytomegalovirus	inhibition			>15%
CC(=O)NCc1ccc(COC(=O)Nc2ccsc2-c2nc(C(=O)O)c(O)c(=O)[nH]2)cc1			HCV polymerase	Hepatitis C virus	IC50			<25 µM
O=C(N[C@@H](Cc1ccccc1)C(=O)O)c1cc2nc(-c3ccc(Cl)cc3)cc(-c3ccc(Oc4ccccc4)cc3)n2n1			RNA-dependent RNA polymerase	Hepatitis C virus	IC50			>10 µM
Fc1cc(-c2cncc(N3CCN(c4ccccc4)CC3)n2)ccc1-c1ccccc1	10 µM		UL97 kinase	Cytomegalovirus	inhibition			>15%
O=C(O)c1cc2nc(-c3ccc(OCc4ccccc4)cc3)c(-c3ccccc3)cn2n1			RNA-dependent RNA polymerase	Hepatitis C virus	IC50			>10 µM
O=C(O)c1nc(-c2ccccc2NS(=O)(=O)c2cc(C(F)(F)F)cc(C(F)(F)F)c2)[nH]c(=O)c1O			HCV polymerase	Hepatitis C virus	IC50			<100 µM
CCCCCCCC/C=C/CC/C=C/[C@H]1C[C@H]([C@](O)(CC(=O)O[C@@H](C(=O)O)[C@H](CC(=O)O)C(=O)O)C(=O)O)C(=O)O1			Geranylgeranyltransferase I	Cryptococcus neoformans	IC50			3 µM
CC(=O)c1ccccc1-c1ccc(C=C2SC(=S)N(c3ccc(C(=O)O)cc3)C2=O)o1			NS5 polymerase	Bovine viral diarrhea virus	IC50			≤1 µM
CCCCCCCCCCCCC/C=C/[C@@H](O)[C@H](CO[C@@H]1O[C@H](CO)[C@H](O)[C@H](OS(=O)(=O)O)[C@H]1O)NC(=O)CCCCCCCCCCCCCCCCCCCCCCC	200 µM	Influenza A/Bangkok/1/79 (H3N2)	Sialidase	Influenza A virus	inhibition			72.8%
O=C(O)c1cc2nccc(-c3cccc(-c4ccccc4Oc4ccccc4)c3)n2n1			RNA-dependent RNA polymerase	Hepatitis C virus	IC50			>10 µM
CCC(CC)O[C@@H]1C=C(C(=O)O)CC[C@H]1NC(C)=O		Victoria	Influenza virus sialidases	Influenza B virus	IC50		fluorescence	0.83 µM
COc1ccccc1N1CCN(c2cncc(-c3csc4ccccc34)n2)CC1			UL97 kinase	Cytomegalovirus	IC50			<100 µM
O=C(O)c1cc2nc(-c3ccc(Cl)cc3)cc(-c3ccccc3Cl)n2n1			RNA-dependent RNA polymerase	Hepatitis C virus	IC50			>10 µM
O=C(O)CCN1C(=O)C(=Cc2ccc(-c3ccc4c(c3)OCO4)o2)SC1=S			NS5 polymerase	Bovine viral diarrhea virus	IC50			≤1 µM
Oc1cc(O)c2c(c1)O[C@H](c1cc(O)c(O)c(O)c1)[C@@H](O)C2	10 µg/mL		DNA polymerase	Epstein-Barr virus	inhibition			67.1%
COc1ccc(-c2cnc3c(C#N)cnn3c2C2CCCCC2)cc1			RNA-dependent RNA polymerase	Hepatitis C virus	IC50			>10 µM
O=C(O)CCN1C(=O)C(=Cc2ccc(-c3ccc4c(c3)Cc3ccccc3-4)o2)SC1=S			NS5 polymerase	Bovine viral diarrhea virus	IC50			≤1 µM
Cc1cn([C@@H]2O[C@H](CO)[C@@H](O)[C@@H]2O)c(=O)[nH]c1=O		KANNO (TK+)	Thymidylate synthetase	Varicella zoster virus	IC50			56 µM
CN(C)CCOc1ccccc1/C=N\N1CCN(C2Cc3ccccc3Sc3ccc(Cl)cc32)CC1			Farnesyl-protein transferase	Candida albicans	IC50			>100 µM
CSc1ccc(-c2cncc(N3CCN(c4ccc(C)c(C)c4)CC3)n2)cc1			UL97 kinase	Cytomegalovirus	IC50			<10 µM
Nc1ccn([C@H]2CC[C@@H](CO)O2)c(=O)n1		Kanno-Kohmura (TK-)	Thymidylate synthetase	Varicella zoster virus	IC50			>100 µM
O=C(O)CP(=O)(O)O			DNA polymerase	Epstein-Barr virus	IC50			2.3 µg/mL
COc1ccc(N2CCN(c3cncc(-c4ccccc4Oc4ccccc4)n3)CC2)cc1OC	10 µM		UL97 kinase	Cytomegalovirus	inhibition			>15%
CC(=O)N[C@@H]1[C@@H](N=C(N)N)C=C(C(=O)O)O[C@H]1C(=O)C(C)C		Victoria	Influenza virus sialidases	Influenza B virus	IC50		fluorescence	110 µM
O=C(Nc1cscc1-c1nc(C(=O)O)c(O)c(=O)[nH]1)NC(CO)c1ccccc1			HCV polymerase	Hepatitis C virus	IC50			<25 µM
O=C(O)c1ccc(N2C(=O)C(=Cc3ccc(-c4ccccc4[N+](=O)[O-])o3)SC2=S)cc1			NS5 polymerase	Bovine viral diarrhea virus	IC50			≤1 µM
CC(C)Cn1c(Sc2ccc(C#N)c([N+](=O)[O-])c2)nnc1-c1ccccc1Cl			Thioredoxin reductase	Plasmodium falciparum	IC50			5.4 µM
COc1ccc(OC(=O)c2csc(Cc3c(Cl)cccc3Cl)n2)cc1			Geranylgeranyl-protein transferase I	Candida albicans	IC50			0.02 µM
O=C(Nc1nn[nH]n1)c1cnn2c(C3CCCCC3)c(-c3ccc(OCc4ccccc4)cc3)cnc12			RNA-dependent RNA polymerase	Hepatitis C virus	IC50			1–10 µM
O=C(O)CCN1C(=O)C(=Cc2ccc(-c3cc4ccc(OCc5ccccc5)cc4o3)o2)SC1=S			NS5 polymerase	Bovine viral diarrhea virus	IC50			≤1 µM
Clc1cc(CN2CCCNCCNCCCNCC2)cc(Cl)n1			CXCR4		fold resistance	CXCR4-H203A		5.88
O=C(O)c1nc(-c2cccc(OCc3ccsc3C(=O)O)c2)[nH]c(=O)c1O			HCV polymerase	Hepatitis C virus	IC50			<100 µM
Cc1nn2c(C3CCCCC3)c(-c3ccc(F)cc3)cnc2c1C(=O)N[C@@H](Cc1ccc(O)cc1)C(=O)O			RNA-dependent RNA polymerase	Hepatitis C virus	IC50			<1 µM
COc1ccc(SCc2cccc(-c3nc(C(=O)O)c(O)c(=O)[nH]3)c2)cc1			HCV polymerase	Hepatitis C virus	IC50			<100 µM
O=C(O)CN1C(=O)C(=Cc2ccc(-c3cc(Cl)cc(Cl)c3)o2)SC1=S			NS5 polymerase	Bovine viral diarrhea virus	IC50			≤1 µM

A second listing of 7 rows from above:

SMILES,tested at,strain or isolate,protein,organism,endpoint,changes,method,result
COc1ccc(OC(=O)c2csc(Cc3c(Cl)cccc3Cl)n2)cc1,,,Geranylgeranyl-protein transferase I,Candida albicans,IC50,,,0.02 µM
Cc1ccc(Cl)c2nc(N3CCN(C(=O)c4ccc([N+](=O)[O-])o4)CC3)sc12,,,Thioredoxin reductase,Plasmodium falciparum,IC50,,,5.2 µM
O=C(O)c1cc2nccc(-c3cccc(-c4ccccc4Oc4ccccc4)c3)n2n1,,,RNA-dependent RNA polymerase,Hepatitis C virus,IC50,,,>10 µM
Cc1cn([C@@H]2O[C@H](CO)[C@@H](O)[C@@H]2O)c(=O)[nH]c1=O,,KANNO (TK+),Thymidylate synthetase,Varicella zoster virus,IC50,,,56 µM
O=C(O)c1nc(-c2cccc(OCc3ccsc3C(=O)O)c2)[nH]c(=O)c1O,,,HCV polymerase,Hepatitis C virus,IC50,,,<100 µM
Nc1ccn([C@@H]2O[C@H](CO)[C@@H](O)[C@@H]2O)c(=O)n1,,KANNO (TK+),Thymidylate synthetase,Varicella zoster virus,IC50,,,52 µM
CCOc1ccc(-c2cncc(N3CCN(c4ccc(F)cc4F)CC3)n2)cc1,10 µM,,UL97 kinase,Cytomegalovirus,inhibition,,,>15%